PubChem BioAssay AID1259414 – Drosophila RNAi Screening Center | 2018
In all, the deposit lists about 24,000 reagents; shown is an unselected part of those that have a named target and a result. Over the whole deposit, about 1,210 (5%) were called active. 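Inactive calls also include excluded dsRNAs with several or no targets, genes unexpressed in JW18, and well A1, regardless of score.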 A plus sign joins genes that one reagent is predicted to hit.

Screen: 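Fly genes that alter Wolbachia amount inside host cells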 (primary screen)
Cell system: Drosophila JW18 cells infected with Wolbachia
Reagents: long dsRNA against Drosophila genes, 0.25 µg dsRNA per well of a 384-well plate
Duration: 5 days
Conditions: cells persistently infected with Wolbachia before knock-down; no added drug
Detection: 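Automated imaging of bacterial rRNA staining divided by host cell count, reported as plate-normalised robust z-score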
Reading the numbers: Wolbachia per cell robust z: higher = more Wolbachia per host cell than the plate typical
Hit rule: 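Active if absolute robust z reaches 1.5 in two or more of three replicates, leaving out multi- or no-target dsRNAs, genes unexpressed in JW18 and A1 wells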

With CG8353 [DRSC03084], what was measured?
Wolbachia per cell robust z, rep 1: 0.331; Wolbachia per cell robust z, rep 2: 0.373; Wolbachia per cell robust z, rep 3: -0.317; outcome: inactive

How did the screen score CG8353 [DRSC27248]?
Wolbachia per cell robust z, rep 1: -0.878; Wolbachia per cell robust z, rep 2: -0.667; Wolbachia per cell robust z, rep 3: 0.669; outcome: inactive

With Ptp61F (Protein tyrosine phosphatase 61F) [DRSC08683], what was measured?
Wolbachia per cell robust z, rep 1: 0.924; Wolbachia per cell robust z, rep 2: 1.41; Wolbachia per cell robust z, rep 3: -0.279; outcome: inactive

With Ptp61F (Protein tyrosine phosphatase 61F) [DRSC28719], what was measured?
Wolbachia per cell robust z, rep 1: -2.77; Wolbachia per cell robust z, rep 2: -2.27; Wolbachia per cell robust z, rep 3: -0.576; outcome: active

How did the screen score hebe [DRSC05192]?
Wolbachia per cell robust z, rep 1: -0.963; Wolbachia per cell robust z, rep 2: -7.52; Wolbachia per cell robust z, rep 3: -1.06; outcome: inactive

Which result is listed for hebe [DRSC06605]?
Wolbachia per cell robust z, rep 1: -0.17; Wolbachia per cell robust z, rep 2: -0.192; Wolbachia per cell robust z, rep 3: -0.237; outcome: inactive

How did the screen score hebe [DRSC21614]?
Wolbachia per cell robust z, rep 1: -0.356; Wolbachia per cell robust z, rep 2: -0.586; Wolbachia per cell robust z, rep 3: 0.553; outcome: inactive

For hebe [DRSC24505], what does the deposit list?
Wolbachia per cell robust z, rep 1: -0.565; Wolbachia per cell robust z, rep 2: -1.27; Wolbachia per cell robust z, rep 3: 0.183; outcome: inactive

With CG7049 [DRSC08587], what was measured?
Wolbachia per cell robust z, rep 1: -0.638; Wolbachia per cell robust z, rep 2: -0.719; Wolbachia per cell robust z, rep 3: -1.51; outcome: inactive

Which result is listed for CG7049 [DRSC26356]?
Wolbachia per cell robust z, rep 1: -0.532; Wolbachia per cell robust z, rep 2: -0.0802; Wolbachia per cell robust z, rep 3: 0.305; outcome: inactive

What did the screen give for CG4691 [DRSC01950]?
Wolbachia per cell robust z, rep 1: 0.292; Wolbachia per cell robust z, rep 2: -2.36; Wolbachia per cell robust z, rep 3: -0.475; outcome: inactive

With CG4691 [DRSC27902], what does the deposit list?
Wolbachia per cell robust z, rep 1: -0.836; Wolbachia per cell robust z, rep 2: 0.864; Wolbachia per cell robust z, rep 3: -0.736; outcome: inactive

What did the screen give for Dso1 (Daisho1) [DRSC21815]?
Wolbachia per cell robust z, rep 1: -0.86; Wolbachia per cell robust z, rep 2: -1.45; Wolbachia per cell robust z, rep 3: -1.59; outcome: inactive

For Dso1 (Daisho1) [DRSC29771], how do the results read?
Wolbachia per cell robust z, rep 1: -0.794; Wolbachia per cell robust z, rep 2: -0.915; Wolbachia per cell robust z, rep 3: -5.55; outcome: inactive

What is on record for ItgaPS4 (Integrin alphaPS4 subunit) [DRSC06630]?
Wolbachia per cell robust z, rep 1: -0.368; Wolbachia per cell robust z, rep 2: -0.75; Wolbachia per cell robust z, rep 3: -0.152; outcome: inactive

How did the screen score CG30048 [DRSC22205]?
Wolbachia per cell robust z, rep 1: 1.02; Wolbachia per cell robust z, rep 2: 0.713; Wolbachia per cell robust z, rep 3: 1.03; outcome: inactive

For CG6149 [DRSC10593], what was measured?
Wolbachia per cell robust z, rep 1: -0.53; Wolbachia per cell robust z, rep 2: 0.676; Wolbachia per cell robust z, rep 3: 1.14; outcome: inactive

Which result is listed for CG18262 [DRSC18149]?
Wolbachia per cell robust z, rep 1: -1.27; Wolbachia per cell robust z, rep 2: 1.27; Wolbachia per cell robust z, rep 3: -1.08; outcome: inactive

What is on record for CG18262 [DRSC24242]?
Wolbachia per cell robust z, rep 1: -0.569; Wolbachia per cell robust z, rep 2: 1.23; Wolbachia per cell robust z, rep 3: 0.234; outcome: inactive

For CG5895 [DRSC10554], how do the results read?
Wolbachia per cell robust z, rep 1: 0.995; Wolbachia per cell robust z, rep 2: 0.421; Wolbachia per cell robust z, rep 3: 0.135; outcome: inactive

How did the screen score CG6012 [DRSC02921]?
Wolbachia per cell robust z, rep 1: -1.51; Wolbachia per cell robust z, rep 2: -5.96; Wolbachia per cell robust z, rep 3: -1.2; outcome: inactive

For Hsp70Bbb + Hsp70Bc + Hsp70Bb + 1 more [DRSC21247], how do the results read?
Wolbachia per cell robust z, rep 1: -2.57; Wolbachia per cell robust z, rep 2: 0.908; Wolbachia per cell robust z, rep 3: 0.882; outcome: inactive

What is on record for lambdaTry [DRSC06137]?
Wolbachia per cell robust z, rep 1: -0.196; Wolbachia per cell robust z, rep 2: -1.45; Wolbachia per cell robust z, rep 3: -2.77; outcome: inactive

With CG14100 [DRSC10101], what was measured?
Wolbachia per cell robust z, rep 1: -1.55; Wolbachia per cell robust z, rep 2: 0.54; Wolbachia per cell robust z, rep 3: -0.248; outcome: inactive

For Irp-1A (Iron regulatory protein 1A) [DRSC16719], how do the results read?
Wolbachia per cell robust z, rep 1: -8.28; Wolbachia per cell robust z, rep 2: -0.192; Wolbachia per cell robust z, rep 3: 0.145; outcome: inactive

With Rab27 [DRSC18567], what does the deposit list?
Wolbachia per cell robust z, rep 1: -1.22; Wolbachia per cell robust z, rep 2: -3.64; Wolbachia per cell robust z, rep 3: -0.814; outcome: inactive

For HnRNP-K (Heterogeneous nuclear ribonucleoprotein K) [DRSC07585], what does the deposit list?
Wolbachia per cell robust z, rep 1: 0.499; Wolbachia per cell robust z, rep 2: 0.765; Wolbachia per cell robust z, rep 3: 0.376; outcome: inactive

Which result is listed for HnRNP-K (Heterogeneous nuclear ribonucleoprotein K) [DRSC22734]?
Wolbachia per cell robust z, rep 1: -2.64; Wolbachia per cell robust z, rep 2: 0.256; Wolbachia per cell robust z, rep 3: 0.0483; outcome: inactive

What did the screen give for HnRNP-K (Heterogeneous nuclear ribonucleoprotein K) [DRSC24070]?
Wolbachia per cell robust z, rep 1: 1.61; Wolbachia per cell robust z, rep 2: -1.36; Wolbachia per cell robust z, rep 3: 0.888; outcome: inactive

With HnRNP-K (Heterogeneous nuclear ribonucleoprotein K) [DRSC40752], what does the deposit list?
Wolbachia per cell robust z, rep 1: -0.115; Wolbachia per cell robust z, rep 2: 0.271; Wolbachia per cell robust z, rep 3: 0.0502; outcome: inactive

2 of these entries, set out differently:
target gene	amplicon	Wolbachia per cell robust z, rep 1	Wolbachia per cell robust z, rep 2	Wolbachia per cell robust z, rep 3	outcome
CG8353	DRSC27248	-0.878	-0.667	0.669	inactive
Ptp61F (Protein tyrosine phosphatase 61F)	DRSC08683	0.924	1.41	-0.279	inactive
